Percent effect of library compounds

The values are deposited in ChEMBL (CHEMBL3988442, “University of Dundee, Small-Polar-MMV Screening Library” (2021)).

Each number is a percent effect as filed.
The record does not define 0% and 100%; most values in the screen are far below 50% and negative numbers occur (in some assays of this library far below -100).
This is part of a subset picked to be rich in strong results.
Two or more numbers in one place are separate tests of the same structure; such repeats can differ widely.
A dash means the value is not listed here; it may have been measured.

Mtb glucose medium: 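Whole-cell growth test on Mycobacterium tuberculosis, read after 3 days in glucose-containing 7H9 medium; the read-out is not stated. Concentration: 50 µM. Higher reads as more growth inhibition (inferred: compounds with an IC50 in retests scored well above the rest). About 69,000 compounds were tested under these conditions; 1.1% (about 760) showed 50% or more at least once.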
Mtb cholesterol medium: 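Growth of Mycobacterium tuberculosis over 4 days (cholesterol / DPPC medium with tyloxapol); the read-out is not stated. Tested at 50 µM. Higher reads as more growth inhibition (inferred: compounds with an IC50 in retests scored well above the rest). About 69,000 compounds were tested under these conditions; 0.54% (about 370) showed 50% or more at least once.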

Compound	Mtb glucose medium	Mtb cholesterol medium
N#Cc1cn[nH]c1NCc1cc(Cl)cc(Cl)c1O	-21.24	-
Cc1cnc2c(S(=O)(=O)NCC3CC3)cccc2c1	1.275	-
NC(=O)c1cnc(NC2CCC(c3ccccc3)CC2)c(Cl)c1 (centres unmarked)	4.792 & 21.27	7.568
CC(C)(NC(=O)c1cnc(-c2ccccc2F)s1)C(N)=O	-19.77 & 3.696	-
CCC(CC)C(=O)NCCc1ccn(-c2ccccc2)n1	-7.766	-20.56
CCn1nc(C)cc1C(=O)NCc1cccnc1N(C)C	2.463	7.963
CO[C@H]1CCN(c2ncccn2)[C@H]1Cc1ccccc1	-16.29	-
Cc1ccc(CCNc2nc(-c3ccncc3)nc3c2CCNCC3)o1	20.73 & 18.3	-
Cc1csc(C(Cc2cccs2)NCc2cc3c(cc2C)OCO3)n1 (centres unmarked)	-	36.06 & -13.6
O=C(c1cc(-c2cccs2)cs1)N1CCOCC1	31.8	-
Br.O=C(CN(C1=NCCCC1)c1ccccc1)c1ccc2c(c1)OCCO2	27.43	9.641
CCOc1cc(CNc2nnn(C)n2)ccc1OCc1ccc(Cl)cc1	36.54	-
CCC(=O)c1ccc(OCC(=O)NCC2CCCO2)cc1 (centres unmarked)	3.254	-
COc1cccc(S(=O)(=O)CCN2CCCC2c2ccc[nH]2)c1 (centres unmarked)	-	15.76
CCCn1c(N2CCCC(C)C2)nc2c(C)nn(C)c2c1=O (centres unmarked)	60.34	-
CC(=O)N1CCCC(c2ccc(Cc3ccccc3)cn2)C1 (centres unmarked)	81.81	65.82
O=C(Cc1cccnc1)NC1COc2ccccc2C1=O (centres unmarked)	-8.376	13.75
CCC[C@H]1CN(S(=O)(=O)N(C)Cc2ccccc2)C[C@@H]1N	22.58	-
Fc1cccc(Cl)c1CNCCCOc1ccccn1	-3.739 & 7.442	-
c1ccc(-c2nc3c(c(NCc4nnc5n4CCC5)n2)CCNC3)cc1	3.645 & -11.33	-5.454
[H][C@@]12C[C@@H](Oc3cccnc3)CN1CCN(C(=O)c1cnccn1)C2	-	1.955
C[S+]([O-])c1nncn1CC(=O)c1ccc(OC(F)F)cc1 (centres unmarked)	5.842 & -36.96	15.89
O=C1c2cccnc2OC(CN2CCOCC2)CN1C1CCC1 (centres unmarked)	4.551	-
Cc1c(CN2CCc3[nH]cnc3C2C(=O)O)[nH]c2ccc(F)cc12 (centres unmarked)	36.9 & 17.22	-
CC(C)CCCC1CN(C(=O)c2cnc[nH]2)CCO1 (centres unmarked)	58.44 & 5.82	-
CC(C)(O)CCc1cccc(C(=O)NCc2cnn3cccnc23)c1	-4.624 & -20.33	-5.769
Cn1cc(C(=O)Nc2ccc3c(c2)CN(C(=O)c2ccco2)CC3)nn1	56.22	-
O=C(Nc1ccnc(OC2CCOC2)c1)c1ccc(F)cc1Cl (centres unmarked)	7.331 & 6.791	7.74
COc1cc(C2CC(=O)Oc3cc(C)[nH]c(=O)c32)ccc1OC(F)F (centres unmarked)	2.222	-
O=C(c1csc(-c2ccco2)n1)N1CCOc2ncccc21	-4.396	-
CC(=O)N1Cc2ccccc2C[C@H]1C(=O)Nc1ccccn1	3.677	-
CC(C)c1nc(N2CCC(N3CCCCCC3)CC2)c2cnn(C)c2n1	53.65	-
CC1(c2ccccc2)CCCN(Cc2cncn2C2CC2)C1 (centres unmarked)	30.22	29.33
CCc1noc(CNc2cc3c(cc2Cl)OCCO3)n1	29.13 & 63.6	-
COc1cc(Oc2cnc3ccccc3n2)ccc1CN1CCCC1	72.93	53.88
O=C(c1[nH]nc(C2CC2)c1Cl)N1CCN(C2CC2)C(=O)C1	-	16.7
CC(=O)N1CCCC2(CCN(Cc3ccc(Cl)c(F)c3)C2)C1 (centres unmarked)	-3.831 & 10.73	-
CC(C)c1nc(CC(=O)N(C)Cc2ccc3c(c2)OCO3)cs1	2.927	1.718
CC(C)(CNc1ccc(C#N)c(C(F)(F)F)c1)C(N)=O	50.43	-
O=C(O)C(F)(F)F.[H][C@@]12C[C@@H](c3nc(C4CC4)cs3)O[C@]1([H])CN(c1ncc(F)cn1)C2	59.9	-
O=C(Cn1cnnn1)Nc1ccc(F)cc1OCC1CC1	-	-0.5116 & -3.254
[H][C@@]12CCC(=O)N(CCC3=CCCCC3)[C@]1([H])CCN(Cc1cnn(C)c1)C2	67.05	-
CC1COCCN1Cc1nc(-c2cccc(C(F)(F)F)c2)no1 (centres unmarked)	1.924 & 5.358	-7.232
O=C(O)[C@@H]1CN(C(=O)NCC2CCCCC2)C[C@H]1c1ccccn1	-	8.983 & 55.74
CCOC(=O)c1cnn(-c2cc(C)ccn2)c1N	11.7 & 30.21	-14.23
COc1cccc(C(CO)NC(=O)Cc2cccc(C)c2)c1 (centres unmarked)	-	6.469 & -2.447
FC1(F)CCNCC12CCN(c1ncccn1)C2 (centres unmarked)	-	51.6
[H][C@@]12OCCN(C(=O)COc3ccccc3)[C@@]1([H])CC[C@@H]2OCC	22.26	-

4 of the entries, repeated:

{"compound": "CC(=O)N1CCCC(c2ccc(Cc3ccccc3)cn2)C1", "stereo": "centres unmarked", "Mtb glucose medium": 81.81, "Mtb cholesterol medium": 65.82}
{"compound": "CC(=O)N1CCCC2(CCN(Cc3ccc(Cl)c(F)c3)C2)C1", "stereo": "centres unmarked", "Mtb glucose medium": "-3.831 & 10.73"}
{"compound": "COc1cc(C2CC(=O)Oc3cc(C)[nH]c(=O)c32)ccc1OC(F)F", "stereo": "centres unmarked", "Mtb glucose medium": 2.222}
{"compound": "COc1cc(Oc2cnc3ccccc3n2)ccc1CN1CCCC1", "Mtb glucose medium": 72.93, "Mtb cholesterol medium": 53.88}